Compound potency records, mixed from different reports. Data source: NIAID ChemDB in PubChem.

Common to all: growth or infection tests; organism: Mycobacterium tuberculosis

MIC bound comes from a single tested concentration. ECn: concentration that inhibits the pathogen or its effect by n%. A number after MIC or MFC names an inhibition level or a share of isolates. Zone: diameter of growth inhibition. Blank or dashed fields: not listed here. Neighbouring rows are from separate reports. Inhibition is in % at the dose shown (toxicity tests: loss of growth or viability).

structure | changes | strain or isolate | read by | measure | cell line | dose | value
CCCCCCCCCCNP(=S)(NCCCCCCCCCC)c1ccccc1 |  |  | resazurin | MIC bound |  |  | >6.25 µg/mL
CCCCCCCCCCCCCCCCCCNC(CCO)C1OC2OC(C)(C)OC2[C@H]1OCc1ccccc1 |  | H37Rv |  | MIC |  |  | 25 µg/mL
NC(=S)c1ccnc(SCc2ccc(Br)cc2)c1 |  | My 331/88 |  | MIC |  |  | 31 µM
Cc1n[nH]c(=S)n1/N=C/c1ccc(Cl)c(Cl)c1 |  | H37Rv | agar diffusion / visual reading | zone |  | 10000 µg/mL | 12 mm
CCCCCCCCCCCCNC(CCO)C1OC2OC(C)(C)OC2[C@@H]1OCc1ccccc1 |  | H37Ra |  | MIC |  |  | 3.12 µg/mL
O=C1NN=C(c2ccc(Cl)cc2)C/C1=C/c1ccccc1 |  | H37Rv | resazurin | MIC |  |  | 25 µg/mL
[O-][n+]1ccccc1SSc1cccc[n+]1[O-] |  | H37Rv | resazurin | MIC90 |  |  | <0.039 µg/mL
CCOc1ccc(C(=O)/C=C/c2cc3cc(Br)ccc3nc2Cl)cc1 |  | H37Rv | broth dilution | inhibition |  | 6.25 µg/mL | 19%
Cc1ccc(C(C)NC(=O)c2cc([N+](=O)[O-])c(C)c([N+](=O)[O-])c2)cc1 | Rifampicin-resistant | RifR | broth dilution / turbidity / visual reading | MIC |  |  | 0.17 µM
CCOc1ccc(C(=O)/C=C/c2cc3cc(F)ccc3nc2Cl)cc1 |  | H37Rv | broth dilution | inhibition |  | 6.25 µM | 13%
CO[C@H]1/C=C/O[C@@]2(C)Oc3c(C)c(O)c4c(O)c(cc(N5CCC(C)CC5)c4c3C2=O)NC(=O)/C(C)=C\C=C\[C@H](C)[C@H](O)[C@@H](C)[C@@H](O)[C@@H](C)[C@H](OC(C)=O)[C@@H]1C |  | H37Rv |  | MIC |  |  | 0.2 µg/mL
O=C(/C=C/c1ccc(F)cc1)c1cc2c(cc1O)OC1(CCCCC1)CC2=O |  | H37Rv | agar | MIC |  |  | 12.5 µg/mL
Fc1ccc(N=C2/C(=C/c3ccco3)CNC/C2=C\c2ccco2)cc1F |  | H37Rv | agar / visual reading | MIC |  |  | 0.39 µg/mL
CC(C)(C)OC(=O)N1CCC2(CC1)CC(=O)c1cc(C(=O)/C=C/c3ccccc3F)c(O)cc1O2 |  | H37Rv | agar | MIC |  |  | 3.13 µg/mL
COC(=O)c1ccc(CSc2ccccc2NC(=S)Nc2cccc(C(F)(F)F)c2)o1 |  | H37Rv | BACTEC | MIC bound |  |  | >12.5 µg/mL
Nc1ccccc1C(=O)/C=C/c1cc2cc(Br)ccc2nc1Cl |  | H37Rv | broth dilution | inhibition |  | 6.25 µg/mL | 6%
Cc1ccc(C2=NNC(=O)/C(=C\c3ccc(Cl)cc3)C2)cc1 |  | H37Rv | resazurin | MIC |  |  | 25 µg/mL
Nc1cc(O)c(C(=O)O)cc1F | Rifampicin-resistant | H37Rv | resazurin | MIC90 |  |  | 6.25 µg/mL
CO[C@H]1/C=C/O[C@@]2(C)Oc3c(C)c(O)c4c(O)c(cc(O)c4c3C2=O)NC(=O)/C(C)=C\C=C\[C@H](C)[C@H](O)[C@@H](C)[C@@H](O)[C@@H](C)[C@H](OC(C)=O)[C@@H]1C |  | H37Rv |  | MIC |  |  | 0.05 µg/mL
CCCC(C)Sc1ccc(C(=S)NC)cc1 |  | H37Rv |  | MIC |  |  | >315 µM
COC(=O)c1ccccc1N=NNc1ccc(C)c(Cl)c1 |  | H37Rv | BACTEC | MIC bound |  |  | >12.5 µg/mL
COc1ccc(N=C2/C(=C/c3ccco3)CNC/C2=C\c2ccco2)cc1 |  | H37Rv | agar / visual reading | MIC |  |  | 25 µg/mL
CCNC(=S)c1ccc(SC)cc1 |  | H37Rv |  | MIC |  |  | >378 µM
O=NN1N=C(c2ccccc2O)CC1c1cn(-c2ccccc2)nc1-c1ccc(F)cc1 |  | H37Rv | BACTEC / radiometric | EC90 |  |  | >234 µM
CCOc1ccc(-c2cc(-c3cc4cc(F)ccc4nc3Cl)nc(N)c2C#N)cc1 |  | H37Rv | broth dilution | inhibition |  | 6.25 µg/mL | 24%
COc1ccc(-c2nn(-c3ccc(Cl)cc3)cc2C2CC(c3ccc4c(c3)CCO4)=NN2)cc1 |  | H37Rv | resazurin | MIC |  |  | 50 µg/mL
Nc1ccc(-c2cc(-c3cn(-c4ccccc4)nc3-c3ccc(F)cc3)[nH]c(=S)n2)cc1 |  | H37Rv | BACTEC / radiometric | EC90 |  |  | >228 µM
Cc1ccccc1Nc1nc(NNC(=O)Cc2ccccc2)nc(NNC(=O)c2ccncc2)n1 |  | H37Rv | BACTEC | MIC bound |  |  | >12.5 µg/mL
NC(=S)c1ccnc(SCc2ccc(Cl)cc2)c1 |  | My 331/88 |  | MIC |  |  | 31 µM
NC(=S)N=C1/C(=C/c2ccco2)CNC/C1=C\c1ccco1 |  | H37Rv | agar / visual reading | MIC |  |  | 1.56 µg/mL
C=CCN(CC=C)c1cc2c(O)c3c(O)c(C)c4c(c13)C(=O)[C@@](C)(O/C=C/[C@H](OC)[C@@H](C)[C@@H](OC(C)=O)[C@H](C)[C@H](O)[C@H](C)[C@@H](O)[C@@H](C)/C=C/C=C(/C)C(=O)N2)O4 |  | H37Rv |  | MIC |  |  | 0.1 µg/mL
Cc1n[nH]c(=S)n1/N=C/c1ccc(Cl)cc1Cl |  | H37Rv | agar diffusion / visual reading | zone |  | 10000 µg/mL | 11.5 mm
CCNC(=S)c1ccc(SCC)cc1 |  | H37Rv |  | MIC |  |  | >355 µM
C=CCCCCn1c2ccccc2c2c(C)c3c[n+](C)ccc3c(C)c21 |  | H37Rv | resazurin | MIC | VERO |  | 1.56 µg/mL
CCCCCCCCO[C@H]1O[C@H](CO[C@H]2O[C@H](COC(=O)c3ccccc3)[C@@H](OC(=O)c3ccccc3)[C@@H]2OC(=O)c2ccccc2)[C@@H](O)[C@@H]1O |  | H37Ra |  | MIC |  |  | >128 µg/mL
Cc1ccc(CSc2cc(C(N)=S)ccn2)cc1 |  | My 331/88 |  | MIC |  |  | 62 µM
O=C1NN=C(c2ccc(Cl)cc2)C/C1=C/c1ccc(Cl)cc1 |  | H37Rv | resazurin | MIC |  |  | 25 µg/mL
Nc1nc(-c2cccc([N+](=O)[O-])c2)cc(-c2cn(-c3ccccc3)nc2-c2ccc(F)cc2)n1 |  | H37Rv | BACTEC / radiometric | EC90 |  |  | >220 µM
NN=C1/C(=C/c2ccco2)CNC/C1=C\c1ccco1 |  | H37Rv | agar / visual reading | MIC |  |  | 12.5 µg/mL
CC(C)(C)OC(=O)N1CCC2(CC1)CC(=O)c1cc(C(=O)/C=C/c3ccc(F)cc3)c(O)cc1O2 |  | H37Rv | agar | MIC |  |  | 6.25 µg/mL
CN[C@@H]1[C@H](O[C@H]2[C@H](O[C@H]3[C@H](O)[C@@H](O)[C@H](N=C(N)N)[C@@H](O)[C@@H]3N=C(N)N)O[C@@H](C)[C@]2(O)C=O)O[C@@H](CO)[C@H](O)[C@H]1O |  | H37Rv | agar diffusion / visual reading | zone |  | 10000 µg/mL | 27 mm
NC(=O)NNC(=O)c1cc([N+](=O)[O-])cc([N+](=O)[O-])c1 |  | H37Rv | BACTEC | MIC bound |  |  | >12.5 µg/mL
COc1cccc(/C=C/C(=O)c2cc3c(cc2O)OC2(CCN(C(=O)OC(C)(C)C)CC2)CC3=O)c1 |  | H37Rv | agar | MIC |  |  | 25 µg/mL
Cc1nn(C)c(Cl)c1C(=O)Nc1ccccc1 |  | H37Rv | BACTEC | MIC bound |  |  | >12.5 µg/mL
NC(=O)c1cnccn1 |  | H37Rv | agar diffusion / visual reading | zone |  | 10000 µg/mL | 30 mm
CO[C@H]1/C=C/O[C@@]2(C)Oc3c(C)c(O)c4c(O)c(cc(N(C)C)c4c3C2=O)NC(=O)/C(C)=C\C=C\[C@H](C)[C@H](O)[C@@H](C)[C@@H](O)[C@@H](C)[C@H](OC(C)=O)[C@@H]1C |  | H37Rv |  | MIC |  |  | 0.05 µg/mL
Nc1nc(N)c(N=Nc2ccc(Cl)cc2Cl)c(=O)[nH]1 |  | H37Rv | BACTEC | MIC bound |  |  | >12.5 µg/mL
N#Cc1ccnc(SCc2ccccc2F)c1 |  | My 331/88 |  | MIC |  |  | 125 µM
OC1(c2ccccc2C(O)(C(F)(F)F)C(F)(F)F)OC(C(F)(F)F)(C(F)(F)F)c2ccccc21 |  | H37Rv | BACTEC | MIC bound |  |  | >12.5 µg/mL
Cc1c([N+](=O)[O-])cc(C(=O)NCc2ccccc2)cc1[N+](=O)[O-] |  | H37Rv (ATCC 27294) | broth dilution / turbidity / visual reading | MIC |  |  | 6.35 µM
CC1=NN(C(=O)c2ccncc2)C(=O)C1N=Nc1ccccc1C |  | H37Rv | BACTEC | MIC |  |  | ≥12.8 µg/mL
CC1(C)OC2O[C@H](C(CCO)NC3CCCCC3)C3OC(C)(C)OC3C2O1 |  | H37Rv |  | MIC |  |  | 12.5 µg/mL
O=c1cc(C(F)(F)F)c2cc3c4c(c2o1)CCCN4CCC3 |  | H37Rv | BACTEC | MIC bound |  |  | >12.5 µg/mL
Cc1ccc(C2=NNC(=O)/C(=C\c3ccc(O)cc3)C2)cc1 |  | H37Rv | resazurin | MIC |  |  | 25 µg/mL
Clc1ccc(-n2cc(C3CC(c4ccc(-c5ccccc5)cc4)=NN3)c(-c3cccs3)n2)cc1 |  | H37Rv | resazurin | MIC |  |  | 1.56 µg/mL
O=C1NN=C(c2ccc(Cl)cc2)C/C1=C/c1ccc(O)cc1 |  | H37Rv | resazurin | MIC |  |  | 12.5 µg/mL
O=C1C(S(=O)(=O)O)=CC(=Nc2ccc(O)cc2)c2ccccc21 |  | H37Rv | BACTEC | inhibition |  | 12.5 µg/mL | 19%
O=C(c1ccccc1)N1N=C(c2ccc(Cl)cc2)CC1c1cn(-c2ccccc2)nc1-c1ccc(F)cc1 |  | H37Rv | BACTEC / radiometric | EC90 |  |  | >192 µM
COc1cccc(N=C2/C(=C/c3ccco3)CNC/C2=C\c2ccco2)c1OC |  | H37Rv | agar / visual reading | MIC |  |  | 25 µg/mL
CCSc1ccc(/C=C/C(N)=S)cc1 |  | H37Rv |  | MIC |  |  | 64 µM
COC(=O)C1c2ccc(OC)c(OC)c2C(=O)N2CCc3cc(OC)c(OC)cc3C12 |  | H37Rv | resazurin | inhibition |  | 6.25 µg/mL | 3%
COc1ccc(OC)c(NCc2cnc3nc(N)nc(N)c3c2C)c1 |  | H37Rv |  | MIC |  |  | 12.5 µg/mL
CCCCCCCCCCCCCCCCNC(=S)N/N=C/c1ccc(NC(C)=O)cc1 |  | H37Rv | BACTEC | inhibition |  | 12.5 µg/mL | 96%
CCNC(=S)c1ccc(SC(C)C)cc1 |  | H37Rv |  | MIC |  |  | 334 µM
CC1(C)OC2OC(C(CCO)NC3CC3)[C@@H](OCc3ccccc3)C2O1 |  | H37Ra |  | MIC |  |  | 50 µg/mL
Cc1n[nH]c(=S)n1/N=C/c1cc(F)c(F)c(F)c1 |  | H37Rv | agar diffusion / visual reading | zone |  | 10000 µg/mL | 12.6 mm
CCCCCCCCO[C@H]1O[C@H](CO[C@H]2O[C@H](CO)[C@@H](O)[C@@H]2O)[C@@H](OC)[C@@H]1OC |  | H37Ra |  | MIC |  |  | >128 µg/mL
CC1NCc2cc(-c3ccc4c(=O)c(C(=O)O)cn(C5CC5)c4c3OC(F)F)ccc21 |  | M-4 |  | MIC |  |  | 0.0625 µg/mL
CCOc1ccc2c(c1)n([O-])c1cc(Br)ccc1[n+]2=O |  | ETA-R |  | MIC |  |  | 1.6 µg/mL
C(=C1/CNC/C(=C\c2ccco2)C1=Nc1ccccc1)/c1ccco1 |  | H37Rv | agar / visual reading | MIC |  |  | 6.25 µg/mL
CCCCCCCCCCCCCNC(CCO)[C@H]1OC2OC(C)(C)OC2C2OC(C)(C)OC21 |  | H37Rv |  | MIC |  |  | <12.5 µg/mL
COC1C(O)=C2C(=O)OC(C)(O)/C=C/C=C/C=C/C=C\C(c3ccccc3)NC(=O)/C=C/C=C/C=C/C=C/C2(C)C1O |  | PZA-R |  | MIC |  |  | >12.5 µg/mL
Clc1ccc(-c2nn(-c3ccc(Cl)cc3)cc2C2CC(c3ccc4c(c3)CCO4)=NN2)cc1 |  | H37Rv | resazurin | MIC |  |  | 25 µg/mL
Nc1c(S(=O)(=O)O)cc(Nc2ccc(S(=O)(=O)O)c(Nc3nc(Cl)nc(Cl)n3)c2)c2c1C(=O)c1ccccc1C2=O |  | H37Rv | BACTEC | inhibition |  | 12.5 µg/mL | 7%
O=C(/C=C/c1ccccc1Cl)c1cc2c(cc1O)OC1(CCCCC1)CC2=O |  | H37Rv | agar | MIC |  |  | 25 µg/mL
Nc1nnc2nc(C(C(=O)c3ccc(O)cc3O)c3nc4nnc(N)n4[nH]c3=O)c(=O)[nH]n12 |  | H37Rv | BACTEC | MIC bound |  |  | >12.5 µg/mL
COc1ccc(-c2nn(-c3ccc(Cl)cc3)cc2C2CC(c3ccc(C)o3)=NN2)cc1 |  | H37Rv | resazurin | MIC |  |  | 25 µg/mL
Cc1cc(=O)c2c([nH]1)c1c(c3[nH]c(C)cc(=O)c32)Oc2ccccc2O1 |  | H37Rv | BACTEC | MIC bound |  |  | ≤12.5 µg/mL
NC(=O)N=C1/C(=C/c2ccco2)CNC/C1=C\c1ccco1 |  | H37Rv | agar / visual reading | MIC |  |  | 12.5 µg/mL
COC1OC2COC(c3ccccc3)OC2C(O)C1N |  | H37Rv | BACTEC | inhibition |  | 6.25 µg/mL | 0%
CCCCCCCSc1ccc(C(=S)NC)cc1 |  | H37Rv |  | MIC |  |  | >284 µM